Experimental data from patent publication US20050244819.

Test system: beta-Gal^PR, engineered E. coli beta-galactosidase with the HIV p6/PR cleavage site decapeptide inse [β-galactosidase: P00722]

wild-type HIV protease (mature HIV-1 NL4.3 protease released by autoprocessing of the precursor TF-PR^WT in E. coli)
β-galactosidase activity: 0.041 µmol/min/mg
